PubChem BioAssay AID1224833 – University of Georgia, 2016

- Test: 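Host factors restraining rotavirus as candidate antiviral genes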 (primary screen)
- System: monkey MA104 kidney cells
- Reagent: siRNA pool against human genes, 50 nM
- Duration: 48 h knock-down before infection; read 24 h after infection
- Treatment: infection with rotavirus strain RV3 two days after transfection; infectious dose for this stage not given
- Read-out: 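z-score of rotavirus antigen signal per well, from a fluorescent immunoassay, relative to non-targeting control wells on the same plate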
- Direction: z-score vs non-targeting control: higher = more rotavirus replication than with non-targeting control
- Active means: In these data the active calls have z-score vs non-targeting control at about -1 or lower, or at about 1 or higher
- Meaning of the calls: active = z-score beyond 1 either way; inactive = z-score within 1 of zero
Here is a random part of about 12,000 reagents tested. About 5,600 of all reagents (46%) count as active. 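Active calls cover z-scores past 1 in both directions, so they include lowered as well as raised rotavirus replication.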 Entries without a mark were called inactive.

USP21
- z-score vs non-targeting control: 0.972

DHRS4
- z-score vs non-targeting control: -0.57

SLC12A6
- z-score vs non-targeting control: -1.27 (active)

BAG2
- z-score vs non-targeting control: -0.705

NCALD
- z-score vs non-targeting control: -0.515

UBIAD1
- z-score vs non-targeting control: -1.14 (active)

OR4D1
- z-score vs non-targeting control: -1.46 (active)

BMP1
- z-score vs non-targeting control: 1.01 (active)

UNC79
- z-score vs non-targeting control: -3.03 (active)

MTO1
- z-score vs non-targeting control: -0.991

MGAT5B
- z-score vs non-targeting control: -1.64 (active)

NOP56
- z-score vs non-targeting control: -0.618

PPP4R4
- z-score vs non-targeting control: -1.42 (active)

MACO1
- z-score vs non-targeting control: 0.0353

CRISPLD2
- z-score vs non-targeting control: -0.563

GCSH
- z-score vs non-targeting control: 1.69 (active)

OR2T3
- z-score vs non-targeting control: -2.34 (active)

CYP2C18
- z-score vs non-targeting control: -2.05 (active)

MYO1G
- z-score vs non-targeting control: 1.04 (active)

EML3
- z-score vs non-targeting control: 2.36 (active)

CLOCK
- z-score vs non-targeting control: -0.578

MSS51
- z-score vs non-targeting control: 0.475

P4HA3
- z-score vs non-targeting control: -0.132

CXCL11
- z-score vs non-targeting control: -0.519

REP15
- z-score vs non-targeting control: -1.38 (active)

PMPCB
- z-score vs non-targeting control: 2.8 (active)

WT1
- z-score vs non-targeting control: -2.28 (active)

COG8
- z-score vs non-targeting control: -0.635

OXR1
- z-score vs non-targeting control: 1.86 (active)

COG5
- z-score vs non-targeting control: 0.265

SRRD
- z-score vs non-targeting control: -0.824

ZFAND4
- z-score vs non-targeting control: -3.05 (active)

GARS1
- z-score vs non-targeting control: -2.98 (active)

PMS2
- z-score vs non-targeting control: 1.96 (active)

GARNL3
- z-score vs non-targeting control: -0.564

ZBTB46
- z-score vs non-targeting control: -0.361

TMEM39B
- z-score vs non-targeting control: -0.571

SAP130
- z-score vs non-targeting control: -1.04 (active)

HSPA1A
- z-score vs non-targeting control: -1.19 (active)

TTC33
- z-score vs non-targeting control: 0.617

VWA5B1
- z-score vs non-targeting control: -0.536

DAW1
- z-score vs non-targeting control: -0.655

RGS19
- z-score vs non-targeting control: -0.54

LRP12
- z-score vs non-targeting control: -0.754

MEI1
- z-score vs non-targeting control: -0.91

IFRD2
- z-score vs non-targeting control: 0.166

ACADL
- z-score vs non-targeting control: 0.735

NXF1
- z-score vs non-targeting control: -4.66 (active)

NSUN7
- z-score vs non-targeting control: 1.2 (active)

ZG16
- z-score vs non-targeting control: -0.892

RPL3L
- z-score vs non-targeting control: -1.09 (active)

PDE1A
- z-score vs non-targeting control: -2.64 (active)

RASAL1
- z-score vs non-targeting control: -0.752

CFAP206
- z-score vs non-targeting control: 0.046

LOXL4
- z-score vs non-targeting control: -0.661

HNRNPA2B1
- z-score vs non-targeting control: -0.0645

NDOR1
- z-score vs non-targeting control: 0.576

HYAL2
- z-score vs non-targeting control: -1.71 (active)

MRPS26
- z-score vs non-targeting control: -0.719

DMAP1
- z-score vs non-targeting control: -0.508

Ordered by “z-score vs non-targeting control” (highest first): some entries from above.
NSUN7
- z-score vs non-targeting control: 1.2 (active)

ACADL
- z-score vs non-targeting control: 0.735

IFRD2
- z-score vs non-targeting control: 0.166

ZG16
- z-score vs non-targeting control: -0.892

MEI1
- z-score vs non-targeting control: -0.91

RPL3L
- z-score vs non-targeting control: -1.09 (active)

PDE1A
- z-score vs non-targeting control: -2.64 (active)

NXF1
- z-score vs non-targeting control: -4.66 (active)
